Results deposited as PubChem BioAssay AID504761 (Drosophila RNAi Screening Center, 2011)
The deposit covers about 22,000 reagents; below is a random part of those that have a named target and a result. In the full data, 116 (0.52%) are marked active. 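Calls depend on retest data that are not deposited; infection was ranked per plate without normalising between plates; the unit of the infection score is not given.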 The raw values are shown without normalisation. Names joined by + are all predicted targets of the reagent. Not stated in the record: the amount of reagent, the time to read-out.

Aim: 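Insect host genes that dengue virus relies on to spread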 (primary screen)
Cell system: D.Mel-2 cells from Drosophila
Reagents: long dsRNA against Drosophila genes
Challenge: infection with dengue virus type 2; dose and infection time not stated
Measured: 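Per well on two replicate plates, imaging gave the percent of cells positive for viral envelope protein, ranked by infection, and a nuclear count of cells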
Scale: infection score: higher = more virus-infected cells; cell count: higher = more cells in the well
Rule for the call: 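Low infection ranks in the two replicates (chance level up to 0.065) followed by a retest with a 1.5-fold or larger significant decrease, p below 0.05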
Calls: active = confirmed: knock-down lowers infection; inactive = not picked or not confirmed

Against Kpc2 [DRSC07635] the deposit lists infection score, replicate 1 = 2.25; infection score, replicate 2 = 7.42; cell count, replicate 1 = 6387; cell count, replicate 2 = 6563; inactive.
CG12991 [DRSC19511] scored infection score, replicate 1 = 6.23; infection score, replicate 2 = 6.39; cell count, replicate 1 = 6665; cell count, replicate 2 = 6584; inactive.
For CG12991 [DRSC28165], the values are infection score, replicate 1 = 6.7; infection score, replicate 2 = 6.31; cell count, replicate 1 = 6717; cell count, replicate 2 = 6437; inactive.
Silencing of Ts [DRSC00795] gave: infection score, replicate 1 = 1.62; infection score, replicate 2 = 3.97; cell count, replicate 1 = 6315; cell count, replicate 2 = 6373; inactive.
For Ts [DRSC22168] the deposit lists infection score, replicate 1 = 2.98; infection score, replicate 2 = 1.22; cell count, replicate 1 = 4569; cell count, replicate 2 = 5174; inactive.
CG11892 [DRSC14428] gave infection score, replicate 1 = 1.3; infection score, replicate 2 = 1.65; cell count, replicate 1 = 6148; cell count, replicate 2 = 6790; inactive.
CG15865 [DRSC19733] showed infection score, replicate 1 = 3.16; infection score, replicate 2 = 8.61; cell count, replicate 1 = 6776; cell count, replicate 2 = 6402; inactive.
Hydr1 [DRSC07063] scored infection score, replicate 1 = 4.91; infection score, replicate 2 = 8.75; cell count, replicate 1 = 6803; cell count, replicate 2 = 6786; inactive.
Silencing of CG43339 + CG43338 [DRSC02466] resulted in: infection score, replicate 1 = 23.3; infection score, replicate 2 = 17.3; cell count, replicate 1 = 6333; cell count, replicate 2 = 5417; inactive.
With knock-down of CG13045 [DRSC09926], the record shows infection score, replicate 1 = 0.61; infection score, replicate 2 = 4.75; cell count, replicate 1 = 6280; cell count, replicate 2 = 6040; inactive.
For CG13045 [DRSC25454], the entry reads infection score, replicate 1 = 1.93; infection score, replicate 2 = 9.61; cell count, replicate 1 = 6179; cell count, replicate 2 = 6097; inactive.
Lsp1beta [DRSC00757] showed infection score, replicate 1 = 5.04; infection score, replicate 2 = 4.62; cell count, replicate 1 = 5815; cell count, replicate 2 = 6669; inactive.
Depletion of Lsp1beta [DRSC24940] came out at: infection score, replicate 1 = 8.25; infection score, replicate 2 = 6.8; cell count, replicate 1 = 6193; cell count, replicate 2 = 5837; inactive.
Against Acbp4 [DRSC11023], the entry reads infection score, replicate 1 = 5.43; infection score, replicate 2 = 0.85; cell count, replicate 1 = 5579; cell count, replicate 2 = 5973; inactive.
Acbp4 [DRSC28938] gave cell count, replicate 1 = 371; cell count, replicate 2 = 383; inactive.
